{"source": "paper PMC6941876", "about": "“White Spot Syndrome Virus Establishes a Novel IE1/JNK/c-Jun Positive Feedback Loop to Drive Replication”", "target": "T1, rLvc-Jun (Litopenaeus vannamei) (UniProt A0A0A7W5M9)", "T1 sequence (looked up, limits assumed)": "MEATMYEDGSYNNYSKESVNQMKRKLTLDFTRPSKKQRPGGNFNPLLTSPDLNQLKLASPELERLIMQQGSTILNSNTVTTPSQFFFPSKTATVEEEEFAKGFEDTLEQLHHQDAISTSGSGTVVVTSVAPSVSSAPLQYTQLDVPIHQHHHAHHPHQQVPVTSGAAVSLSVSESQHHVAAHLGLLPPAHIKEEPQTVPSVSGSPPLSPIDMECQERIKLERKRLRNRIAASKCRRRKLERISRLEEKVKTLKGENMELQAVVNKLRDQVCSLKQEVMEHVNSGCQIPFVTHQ", "experiment": "competition with a labelled probe", "conditions": "unlabeled WT competitor reduces shift; EMSA with biotin-labeled probes; recombinant protein; protein details: GST tag removed with enterokinase; label: biotin (probe), unlabeled as competitor", "note": "For at least one entry, the source does not settle the construct or the ends of the probe. At least one verdict rests on a figure or table, not on a statement of the authors. Where a protein sequence is shown, tags need not be part of it."}
{"sequence": "GGAATTTCCTTGTTACTCATTTATTCCTAGA (double strand) [IE1-AP-1-2 probe]", "values": [{"measurement": "binding result", "result": "binds"}]}
